Measured values from several laboratories, pooled; numbers as filed in NIAID ChemDB.

Shared fields: whole-cell or culture tests

Blank or dashed fields: not listed here. A number after MIC or MFC names an inhibition level or a share of isolates. ECn: concentration that inhibits the pathogen or its effect by n%. Neighbouring rows are from separate reports. Inhibition is in % at the dose shown (toxicity tests: loss of growth or viability).

structure,tested at,strain or isolate,read-out,organism,cells,method,value
O=S(=O)([O-])c1ccc(NS(=O)(=O)c2ccccc2)c2c(S(=O)(=O)[O-])cccc12,50 µg/mL,TYPE 3,inhibition,Adenovirus,Human embryonic lung cells,cytopathic effect,0%
CCO/N=C/c1ccc(OCCC2CCN(c3ccc(Cl)nn3)CC2)cc1,-,1-CV15 (ICAM-1 receptor group 11),EC50,Rhinovirus,KB,neutral red,0.002 µM
Cc1cn([C@@H]2O[C@H](CO)[C@@H](O)[C@@H]2O)c(=O)[nH]c1=O,1 µg/mL,YS,inhibition,Varicella zoster virus,HELF,plaque count,100%
O=C(Nc1c(S(=O)(=O)[O-])cc2cc(S(=O)(=O)[O-])cc(O)c2c1O)c1ccccc1,50 µg/mL,-,inhibition,Herpes simplex virus,Human conjunctiva cells,cytopathic effect,30%
CC(=O)N[C@H]1[C@H]([C@H](O)[C@H](O)CO)OC(C(=O)O)=C[C@@H]1N=C(N)N,-,H3N2 A/X-31,EC50,Influenza A virus,MDCK,-,0.4 µM
CCc1cn([C@@H]2O[C@H](CO)[C@@H](O)[C@@H]2O)c(=O)[nH]c1=O,10 µg/mL,YS,inhibition,Varicella zoster virus,HELF,plaque count,0%
C=CCc1ccc(OC)c(OC)c1,-,342,MIC90,Candida krusei,-,turbidity,345 µg/mL
CCOC(=O)c1c(C)nc(NCCCCNc2ccnc3cc(Cl)ccc23)nc1-c1ccccc1[N+](=O)[O-],-,1913 ER,MIC99,Cryptococcus gattii,-,-,8 µg/mL
Nc1nc2c(ncn2COCCO)c(=O)[nH]1,1 µg/mL,YS,inhibition,Varicella zoster virus,HELF,plaque count,50%
CCOC(=O)c1c(C)nc(NCCCCNc2ccnc3cc(Cl)ccc23)nc1-c1ccccc1,-,LMM 818,MIC99,Cryptococcus gattii,-,-,11.3 µg/mL
Nc1nc(=O)n([C@@H]2O[C@H](CO)[C@@H](O)[C@@H]2F)cc1I,0.1 µg/mL,KANNO,inhibition,Varicella zoster virus,HELF,plaque count,100%
O=C(Nc1cc(S(=O)(=O)O)cc2cc(S(=O)(=O)O)cc(O)c12)c1ccccc1,50 µg/mL,-,inhibition,Herpes simplex virus,Human amnion AV3 cells,cytopathic effect,10%
CCOC(=O)c1cnc(NCCCCNc2ccnc3cc(Cl)ccc23)nc1C,-,WP,MIC99,Cryptococcus neoformans,-,-,8 µg/mL
Nc1ccc2c(O)cc(S(=O)(=O)[O-])cc2c1S(=O)(=O)[O-],5 µg/mL,-,inhibition,Herpes simplex virus,Human amnion AV3 cells,cytopathic effect,0%
Cc1cn([C@@H]2O[C@H](CO)[C@@H](O)[C@@H]2F)c(=O)nc1N,0.01 µg/mL,HIRAI,inhibition,Varicella zoster virus,HELF,plaque count,100%
Cc1ccc(C(=O)Nc2ccc(S(=O)(=O)O)c3cc(S(=O)(=O)O)cc(S(=O)(=O)O)c23)cc1NC(=O)c1cccc(NC(=O)Nc2cccc(C(=O)Nc3cc(C(=O)Nc4ccc(S(=O)(=O)O)c5cc(S(=O)(=O)O)cc(S(=O)(=O)O)c45)ccc3C)c2)c1,5 µg/mL,TYPE 3,inhibition,Adenovirus,Human embryonic lung cells,cytopathic effect,0%
CCOC(=O)/C=C/[C@H](C[C@@H]1CCNC1=O)NC(=O)[C@@H](CC(=O)[C@@H](NC(=O)c1cc(C)on1)C(C)C)Cc1ccc(F)cc1,-,Isolate 3,EC50,Rhinovirus,OHIO HELA-I,cytopathic effect / visual reading,0.02 µg/mL
O=S(=O)([O-])c1ccc2c(S(=O)(=O)[O-])cc(S(=O)(=O)[O-])cc2c1,50 µg/mL,TYPE 3,inhibition,Adenovirus,Human embryonic lung cells,cytopathic effect,80%
Oc1ccc(O)c(C=Nc2ccccc2O)c1,-,ATCC 24065,MIC99,Cryptococcus gattii,-,-,8 µg/mL

A second listing of 2 rows from above:

| structure | tested at | strain or isolate | read-out | organism | cells | method | value |
|---|---|---|---|---|---|---|---|
| CCOC(=O)/C=C/[C@H](C[C@@H]1CCNC1=O)NC(=O)[C@@H](CC(=O)[C@@H](NC(=O)c1cc(C)on1)C(C)C)Cc1ccc(F)cc1 | - | Isolate 3 | EC50 | Rhinovirus | OHIO HELA-I | cytopathic effect / visual reading | 0.02 µg/mL |
| Cc1cn([C@@H]2O[C@H](CO)[C@@H](O)[C@@H]2F)c(=O)nc1N | 0.01 µg/mL | HIRAI | inhibition | Varicella zoster virus | HELF | plaque count | 100% |